In the data set the test system is C[C@H]1O[C@H](OP(=O)(O)OP(=O)(O)OC[C@H]2O[C@@H](n3cnc4c(=O)[nH]c(N)nc43)[C@H](O)[C@@H]2O)[C@@H](O)[C@@H](O)[C@@H]1N. The data set can be described thus: purified protein. The following applies: pH 8.0.

Broadly, the Km is the substrate concentration at which the rate is half of its maximum. As for (Brucella melitensis bv. 1 str. 16M), the Km was determined as 184 ± 8 µM.

These data come from paper PMC5543684.
